Test results taken from patent US6977269B1, “Method of improving animal tissue quality” (Pioneer Hi-Bred International, Inc, priority 2001, dated 2005).

Tested on: Lactic acid bacteria
Assay: Lactic acid bacteria population on pork loins
Format: in vivo
Conditions: plate count calculated as Log10 CFU/CM^2

Row | SMILES | Lactic acid bacteria population (450 IU/kg treatment) | Lactic acid bacteria population (300 treatment)
1 | Cc1c(C)c2c(c(C)c1O)CC[C@@](C)(CCC[C@H](C)CCC[C@H](C)CCCC(C)C)O2 [Alpha-tocopherol, alpha-tocopherol, reference compound] | 6.84×10^0 | –
2 | Cc1c(O)cc2c(c1C)O[C@](C)(CCC[C@H](C)CCC[C@H](C)CCCC(C)C)CC2 [Gamma-tocopherol, gamma-tocopherol] | 1.07×10^1 | 2.13×10^2
